# Measurements from PubChem BioAssay AID1159583 (ICCB-Longwood Screening Facility, Harvard Medical School, 2016).
# The entries are a selection whose mix differs from that of the whole data set. Calls of active or inactive are those of the source. Cut-off read from the data, not from the text of the source: active = fluorescence inhibition mostly above about 23% (no sharp cut-off); inactive = mostly below about 17%.
# Experiment: hypoxia reporter signal reduction in M. tuberculosis – fluorescence, absorbance growth readout, primary screen (AID 1159583)
# Conditions: M. tuberculosis hypoxia-regulated fluorescent reporter, stronger effect = higher value, concentration not given here
row,Structure (SMILES),fluorescence inhibition
1,O=[N+]([O-])c1cc([N+](=O)[O-])c(Nc2cccnc2)c([N+](=O)[O-])c1,inactive: 19.7%
2,O=[N+]([O-])c1ccc(Nc2ccc(Oc3ccc([N+](=O)[O-])cc3[N+](=O)[O-])cc2)c([N+](=O)[O-])c1,inactive: 0.999%
3,CP(=O)(Nc1ccccc1Br)Oc1ccccc1 (configuration not stated),inactive: -2.41%
4,COc1ccccc1OP(C)(=O)Nc1ccccc1 (configuration not stated),inactive: 12.1%
5,Cc1cc(SC(NC=O)C(Cl)(Cl)Cl)ncn1 (configuration not stated),inactive: 11.6%
6,O=P(Nc1ccccn1)(c1cccc2ccccc12)c1cccc2ccccc12,inactive: 7.23%
7,CCOC(=O)Nc1cccc([As](=O)(O)O)c1,inactive: 4.07%
8,Cc1cc(SC(NC(=O)c2ccccc2)C(Cl)(Cl)Cl)nc(C(C)C)n1 (configuration not stated),inactive: 0.17%
9,COc1ccc(NC(=NP(=O)(N2CCOCC2)N2CCOCC2)N2CCOCC2)cc1,inactive: -8.47%
10,CCCCOc1ccc(C(=O)NCC2(N3CCCCC3)CCCCC2)cc1OC,inactive: 6.14%
11,CC1CCNP(=O)(N(CCCl)CCCl)O1 (configuration not stated),inactive: 10.7%
12,CP(=O)(Nc1ccccn1)Oc1ccc(Cl)cc1 (configuration not stated),inactive: 3.17%
13,CCC(C)N(CC(C)C)C(=S)SC(NC(C)=O)C(Cl)(Cl)Cl (configuration not stated),inactive: 4.51%
14,O=[N+]([O-])c1cc([N+](=O)[O-])c(O)c([N+](=O)[O-])c1.c1ccc(Oc2ccncc2)cc1,inactive: 6.56%
15,CCOC(=O)c1ccc(NP(C)(=O)Oc2ccc(OC)cc2)cc1 (configuration not stated),inactive: 9.28%
16,CCOC(=O)c1ccc(NC(=O)C(C)(CCl)SC)cc1 (configuration not stated),inactive: 8.31%
17,O=C(OC1CN2CCC1CC2)c1cccc([N+](=O)[O-])c1 (configuration not stated),inactive: 16.2%
18,Cc1cc(C)cc(OP(C)(=O)Nc2ccc(SC(F)(F)F)cc2)c1 (configuration not stated),inactive: 13.3%
19,O=C(Nc1ccncc1[N+](=O)[O-])c1ccc([N+](=O)[O-])cc1[N+](=O)[O-],inactive: 13.4%
20,CP(=O)(NC(=O)Nc1ccccc1)Oc1ccccc1 (configuration not stated),inactive: 11.3%
21,O=C(COc1ccccc1)OC1CN2CCC1CC2 (configuration not stated),inactive: -6.01%
22,CCc1ccc(OP(C)(=O)N2CCN(c3ccc([N+](=O)[O-])cc3)CC2)cc1 (configuration not stated),inactive: 5.59%
23,CC1OP(=O)(Oc2ccccc2)C(O)C(O)C1N=[N+]=[N-] (configuration not stated),inactive: -3.77%
24,CP(=O)(Oc1ccccc1)OC(c1ccccc1)C(F)(F)F (configuration not stated),inactive: 15.5%
25,COP1(=S)c2c(C)nn(CCC#N)c2N=C(c2ccc(F)cc2)N1C (configuration not stated),inactive: 12.3%
26,CP(=O)(Nc1ccc(SC(F)(F)F)cc1)Oc1ccc(Cl)cc1 (configuration not stated),inactive: -0.746%
27,Cc1cccc(C)c1OP(C)(=O)Nc1ccc(SC(F)(F)F)cc1 (configuration not stated),inactive: 2.58%
